A mixed list of measured activities; the numbers were collected in NIAID ChemDB.

Shared fields: growth or infection tests; agent: Mycobacterium avium

Rows are shuffled and stem from different studies.

| compound | strain | read-out | value |
|---|---|---|---|
| CCOc1ccccc1NC(=O)OCCN1CCOCC1 | MY330/88 | MIC | 1000 µM |
| O=[N+]([O-])c1ccccc1CSc1ncn[nH]1 | MY330/88 | MIC | 1000 µM |
| CCCCCCCOc1cccc(NC(=O)OCCN2CCCCC2)c1 | MY330/88 | MIC | 32 µM |
| O=c1oc2cc(Cl)ccc2c(=O)n1-c1cccc([N+](=O)[O-])c1 | CNCTC MY330/88 | MIC | 16 µM |
| Fc1ccc(CSc2ncn[nH]2)cc1F | MY330/88 | MIC | 500 µM |
| Cc1ccc2nc(SCc3ccc(F)c(F)c3)[nH]c2c1 | MY330/88 | MIC | 32 µM |
| COc1ccc(-n2c(=O)oc3cc(C)ccc3c2=O)cc1 | CNCTC MY330/88 | MIC | 62 µM |
| Cn1cn[nH]c1=S | MY330/88 | MIC | >1000 µM |
| Cc1ccc2nc(SCc3ccc(Br)cc3)[nH]c2c1 | MY330/88 | MIC | >32 µM |
| Fc1ccccc1CSc1ncn[nH]1 | MY330/88 | MIC | 250 µM |
| O=c1oc2cc(Cl)ccc2c(=O)n1-c1ccc(Cl)c(Cl)c1 | CNCTC MY330/88 | MIC | 8 µM |
| CCCCCCOc1ccc(NC(=O)OCCN2CCCCCC2)cc1 | MY330/88 | MIC | 8 µM |
| Cc1ccc2nc(SCc3ccc([N+](=O)[O-])cc3)[nH]c2c1 | MY330/88 | MIC | 16 µM |
| Clc1ccc2c(c1)nc1cc(Nc3ccccc3)c(=NC3CCCCC3)cc-1n2-c1ccccc1 | 24657 | MIC | 3.3 µg/mL |
| COc1cccc(CSc2nc3ccc(C)cc3[nH]2)c1 | MY330/88 | MIC | 62 µM |
| CCOc1ccccc1NC(=O)OCCN1CCCCC1 | MY330/88 | MIC | >1000 µM |
| COc1ccc2c(=O)n(-c3cccc(Cl)c3)c(=O)oc2c1 | CNCTC MY330/88 | MIC | 32 µM |
| CCCCCCCOc1ccccc1NC(=O)OCCN1CCCCCC1 | MY330/88 | MIC | 16 µM |
| Cc1cccc(CSc2ncn[nH]2)c1 | MY330/88 | MIC | 500 µM |
| NNC(=O)c1ccncc1 | 168-4 | MBC | 160 µg/mL |
| CCCCCCCCCOc1ccccc1NC(=O)OCC[NH+]1CCCC1 | MY330/88 | MIC | 16 µM |

Repeating the final 2 entries:

compound	strain	read-out	value
NNC(=O)c1ccncc1	168-4	MBC	160 µg/mL
CCCCCCCCCOc1ccccc1NC(=O)OCC[NH+]1CCCC1	MY330/88	MIC	16 µM